A mixed list of measured activities; the numbers were collected in NIAID ChemDB.

All rows: growth or infection tests; species: Mycobacterium avium; read-out: MIC

Rows are shuffled and stem from different studies. An empty or dashed field is not shown.

SMILES,setting,strain or isolate,value
CCOc1ccc(NC(=O)OCC[NH+]2CCCC2)cc1,,MY330/88,>1000 µM
NC(=S)c1cc(SCc2ccccc2F)ccn1,,CNCTC MY330/88,15.85 µM
CCCCCCCCCCCCCCCCCCN(C)C[C@H]1O[C@H](O[C@H]2O[C@H](CN(C)CCCCCCCCCCCCCCCCCC)[C@@H](O)[C@H](O)[C@H]2O)[C@H](O)[C@@H](O)[C@@H]1O,,NJ3404,>128 µg/mL
CC(=O)NC[C@H]1CN(c2ccc(N3CCSCC3)c(F)c2)C(=O)O1,,LPR,4 µg/mL
Clc1ccc(/C(Cn2ccnc2)=N\OCc2cccc3ccccc23)c(Cl)c1,,CIP103317,>16 µg/mL
Cc1ccc(C(=O)NCc2ccccn2)c(O)c1,21 d,ATCC 25291,500 µM
N#Cc1cc(SCc2ccccc2F)ccn1,,CNCTC MY330/88,126 µM
O=C(Nc1cccc(Br)c1)c1cc(Cl)ccc1OS(=O)(=O)c1ccccc1,21 d,330/88,16 µM
CCCCCCOc1ccc(NC(=O)OCC[NH+]2CCCC2)cc1,,MY330/88,32 µM
Cc1c(CN2CCSCC2)cc(-c2ccc(Cl)cc2)n1-c1ccc(F)cc1,,,>16 µg/mL
CCCCCCCCOc1ccccc1NC(=O)OCC[NH+]1CCCC1,,MY330/88,16 µM
NC(=S)c1cccc(CSc2ncn[nH]2)c1,,MY330/88,1000 µM
Cc1c(CN2CCN(C)CC2)cc(-c2ccccc2F)n1-c1cccc2ccccc12,,,4 µg/mL
CCCCCCCCCCOc1ccc(NC(=O)OCCN(C)C)cc1,,MY330/88,4 µM
O=c1oc2ccc(F)cc2c(=S)n1-c1ccc(Cl)cc1,14 d,MY330/88,4 µM
S=c1nc[nH][nH]1,,MY330/88,1000 µM
CCCCCCCCCCC[N+]1(CCOC(=O)Nc2ccccc2OCCCCCC)CCCCC1,,MY330/88,32 µM
O=C(Nc1ccc(C(F)(F)F)cc1)c1ccc(Cl)cc1OS(=O)(=O)c1ccccc1,21 d,330/88,250 µM
FC(F)(F)c1cc(CSc2ncn[nH]2)cc(C(F)(F)F)c1,,MY330/88,1000 µM
O=C(Nc1ccc(F)cc1)c1cc(Cl)ccc1OS(=O)(=O)c1ccccc1,21 d,330/88,32 µM
COc1ccc(CSc2nnn(-c3ccc(Cl)cc3)n2)cc1,,CNCTC MY330/88,125 µM
C(=C\c1ccccc1)/CO/N=C(/Cn1ccnc1)c1ccccc1,,CIP103317,>16 µg/mL
CCCCOc1ccc(NC(=O)OCC[NH+]2CCCC2)cc1,,MY330/88,250 µM
CCCCCCCC[N+]1(CCOC(=O)Nc2ccccc2OCCCCC)CCCCC1,,MY330/88,16 µM
NC(=S)c1cc(SCc2ccc(F)cc2)ccn1,,CNCTC MY330/88,15.85 µM
CCCCCCOc1ccccc1NC(=O)OCC[N+]1(C)CCCCC1,,MY330/88,250 µM
CCCCC(CC)CNC[C@H]1O[C@H](O[C@H]2O[C@H](CO)[C@@H](O)[C@H](O)[C@H]2O)[C@H](O)[C@@H](O)[C@@H]1O,,NJ168,>128 µg/mL
O=C(Nc1ccc(Cl)cc1)c1cc(Cl)ccc1OS(=O)(=O)c1ccccc1,14 d,330/88,32 µM
C[C@@H]1C(=O)O[C@H]2[C@H]1CCC1(C)O[C@@H]1CC[C@@]1(C)O[C@@H]21,,,128 µg/mL
O=C(Nc1cccc(Cl)c1)c1ccc(Cl)cc1OS(=O)(=O)c1ccccc1,14 d,330/88,500 µM
CC(C)N=c1cc2n(-c3ccc(Cl)cc3)c3ccccc3nc-2cc1Nc1ccc(Cl)cc1,,19894,5 µg/mL
Fc1ccc(/C(Cn2ccnc2)=N\OCc2ccccc2)cc1,,CIP103317,4 µg/mL
Cn1cnnc1SCc1ccc(C(N)=S)cc1,,MY330/88,1000 µM
CCS/C(N)=N/N=C/c1ccc2cc(Cl)ccc2n1,,CNCTC MY66/72,16 µM
CCCCCCCOc1cccc(NC(=O)OCCN2CCCCC2)c1,,MY330/88,32 µM
N#Cc1cc(SCc2ccc(F)cc2)ccn1,,CNCTC MY330/88,30.9 µM
CCCCCCCCCOc1ccccc1NC(=O)OCC[NH+]1CCCC1,,MY330/88,16 µM
COc1ccccc1NC(=O)OCCN1CCOCC1,,MY330/88,>1000 µM
CCS/C(N)=N/N=C/c1ccccc1O,,CNCTC MY66/72,8 µM
O=C(O)c1cnc(Cl)cn1,,49601,>1024 µg/mL
CC[C@H]1OC(=O)[C@H](C)C(=O)[C@H](C)[C@@H](O[C@@H]2O[C@H](C)C[C@H](N(C)C)[C@H]2O)[C@](C)(OC)C[C@@H](C)C(=O)[C@H](C)[C@H]2N(CCCCn3cnc(-c4cccnc4)c3)C(=O)O[C@]12C,,Isolate 711,10 µg/mL
COc1ccc(CSc2nnn(-c3ccc(OC)cc3)n2)cc1,,CNCTC MY330/88,125 µM
Cc1c(CN2CCSCC2)cc(-c2ccccc2)n1-c1ccccc1,,,16 µg/mL
Cc1ccc2oc(=O)n(-c3ccc(C(F)(F)F)cc3)c(=S)c2c1,14 d,MY330/88,32 µM
O=C(NCc1cccnc1)c1ccc(Cl)cc1O,14 d,ATCC 25291,250 µM
CCCC(C)S/C(N)=N/N=C/c1ccc2ccccc2n1,,CNCTC MY80/72,63 µM
O=C(Nc1cccc(F)c1)c1cc(Cl)ccc1OS(=O)(=O)c1ccccc1,21 d,330/88,500 µM
CCOc1ccccc1NC(=O)OCCN(C)C,,MY330/88,500 µM
CCS/C(N)=N/N=C/c1nc2ccccc2o1,,CNCTC MY66/72,63 µM
Cc1ccc(-n2c(=O)oc3ccc(C)cc3c2=S)cc1,21 d,MY330/88,1 µM
CCS/C(N)=N/N=C/c1ccc2ccccc2n1.CCS/C(N)=N/N=C/c1ccc2ccccc2n1,,CNCTC MY66/72,8 µM
COc1ccc2oc(=S)n(-c3ccc(F)cc3)c(=S)c2c1,14 d,MY330/88,32 µM
CCCCCCCCOc1ccc(NC(=O)OCC[NH+]2CCCC2)cc1,,MY330/88,16 µM
Fc1cccc(-n2c(=S)oc3ccc(F)cc3c2=S)c1,21 d,MY330/88,16 µM
Cc1ccc(CSc2ccnc(C(N)=S)c2)cc1,,CNCTC MY330/88,15.85 µM
CCCCOc1ccc(NC(=O)OCC[NH+]2CCCC2)cc1,,MY330/88,250 µM
Cc1c(CN2CCSCC2)cc(-c2ccccc2F)n1-c1ccccc1,,,>16 µg/mL
C/C=C(/C)C(=O)O[C@@H]1C=C(C)CC[C@H]2[C@H](C)C(=O)O[C@@H]2/C=C(\C)C1,,,>128 µg/mL
OCNC(=S)c1cnccn1,,ATCC 25291,50 µg/mL
Cc1cccc(C(=O)NCc2ccccn2)c1O,14 d,ATCC 25291,125 µM
O=[N+]([O-])c1ccccc1CSc1ncn[nH]1,,MY330/88,500 µM
COc1ccc(-n2nnc(SCc3ccccc3)n2)cc1,,CNCTC MY330/88,62.5 µM
CC1=CCC/C(C)=C/[C@H]2OC(=O)[C@@H](C)[C@@H]2CC1,,,128 µg/mL
CCCCS/C(N)=N/N=C/c1ccc2ccccc2n1,,CNCTC MY66/72,16 µM
CCCCC(CC)CN(CC(CC)CCCC)C[C@H]1O[C@H](O[C@H]2O[C@H](CN(CC(CC)CCCC)CC(CC)CCCC)[C@@H](O)[C@H](O)[C@H]2O)[C@H](O)[C@@H](O)[C@@H]1O,,NJ168,128 µg/mL
Fc1ccc(/C(Cn2ccnc2)=N/OCc2cccc3ccccc23)cc1,,CIP103317,8 µg/mL
COc1cccc(C(=O)NCc2ccccn2)c1O,21 d,ATCC 25291,1000 µM
C=C1CC[C@@H](O)[C@]2(C)CC[C@@H]3[C@H](OC(=O)[C@H]3C)[C@@H]12,,,>128 µg/mL
NC(=S)c1cc(SCc2ccc([N+](=O)[O-])cc2)ccn1,,CNCTC MY330/88,3.98 µM
CCCCCOc1ccccc1NC(=O)OCC[N+]1(Cc2ccccc2)CCCCC1,,MY330/88,250 µM
N#Cc1cc(SCc2c(F)cccc2[N+](=O)[O-])ccn1,,CNCTC MY330/88,126 µM
Brc1cccc(CSc2ncn[nH]2)c1,,MY330/88,250 µM
CCCCCCCCCCCCNC[C@H]1O[C@H](O[C@H]2O[C@H](CNCCCCCCCCCCCC)[C@@H](O)[C@H](O)[C@H]2O)[C@H](O)[C@@H](O)[C@@H]1O,,NJ211,8 µg/mL
CCCCCCCOc1ccccc1NC(=O)OCC[NH+]1CCCC1,,MY330/88,16 µM
CCCCS(=O)(=O)NC[C@H]1O[C@H](O[C@H]2O[C@H](CNS(=O)(=O)CCC)[C@@H](O)[C@H](O)[C@H]2O)[C@H](O)[C@@H](O)[C@@H]1O,,NJ211,>128 µg/mL
Clc1ccc(-n2nnc(SCc3ccccc3)n2)cc1Cl,,CNCTC MY330/88,62.5 µM
c1ccc(/C(Cn2ccnc2)=N\OCc2cccc3ccccc23)cc1,,CIP103317,8 µg/mL

The first 9 rows once more:

SMILES	setting	strain or isolate	value
CCOc1ccc(NC(=O)OCC[NH+]2CCCC2)cc1		MY330/88	>1000 µM
NC(=S)c1cc(SCc2ccccc2F)ccn1		CNCTC MY330/88	15.85 µM
CCCCCCCCCCCCCCCCCCN(C)C[C@H]1O[C@H](O[C@H]2O[C@H](CN(C)CCCCCCCCCCCCCCCCCC)[C@@H](O)[C@H](O)[C@H]2O)[C@H](O)[C@@H](O)[C@@H]1O		NJ3404	>128 µg/mL
CC(=O)NC[C@H]1CN(c2ccc(N3CCSCC3)c(F)c2)C(=O)O1		LPR	4 µg/mL
Clc1ccc(/C(Cn2ccnc2)=N\OCc2cccc3ccccc23)c(Cl)c1		CIP103317	>16 µg/mL
Cc1ccc(C(=O)NCc2ccccn2)c(O)c1	21 d	ATCC 25291	500 µM
N#Cc1cc(SCc2ccccc2F)ccn1		CNCTC MY330/88	126 µM
O=C(Nc1cccc(Br)c1)c1cc(Cl)ccc1OS(=O)(=O)c1ccccc1	21 d	330/88	16 µM
CCCCCCOc1ccc(NC(=O)OCC[NH+]2CCCC2)cc1		MY330/88	32 µM